## Sequence variants of PSTVd loop 1 after infection

Source: Wu et al. 2024 (doi:10.1371/journal.ppat.1012142), supplementary data.

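Three N. benthamiana plants were inoculated with the whole mutant pool. Samples came from the inoculated region at 5 days, the leaf margin at 10 and upper systemic leaves at 12.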

PSTVd intermediate strain, loop 1: wild type CCUCGG, pool pattern CNNNNG; 5' to 3', with the closing base pair.

Numbers give reads per thousand; 0 = not seen among the reads, higher = more abundant.
Each site shows the three plants.
"Pool" is the share in the plasmid pool used as inoculum, on the same scale.
The inoculated region was read from the minus strand, the other sites from the plus strand.
Samples held 32,791 to 60,834 reads, so the smallest values rest on one or two reads.
For reference, wild type rose from 20.1 per thousand in the pool to 197, 219, 222 (inoculated region), 828, 823, 779 (leaf margin) and 914, 907, 857 (systemic leaves).
The authors trace changes outside the varied positions to PCR and sequencing errors or to mutation in the plant; presence does not show that a variant is infectious alone.

sequence,pool,inoculated region,leaf margin,systemic leaves
CCCACG,3.57,2.92 3.04 3.16,0 0.0211 0.0305,0 0 0
ACUCGU,0.0131,0.0185 0 0.0536,0 0.0423 0,0.0812 0 0.0658
CAAGGG,3.57,2.95 2.49 2.27,0 0 0,0 0 0
CUGUAG,3.56,2.82 2.70 3.13,16.2 7.31 4.64,0 0 0
CGUUGG,3.73,3.01 2.64 2.75,0 0.0211 0,0 0 0.0329
CGUAGG,3.36,2.71 2.57 2.72,0 0 0,0 0 0
CUGAAG,3.98,3.49 2.96 2.55,0 0 0.0305,0 0.0180 0.0164
CAUAGG,3.26,2.82 2.81 2.61,0.0199 0.0211 0,0.0203 0 0.0164
CCUUAG,3.59,2.80 2.53 2.47,0 0.0211 0.0305,0 0 0
CGCUGG,3.94,3.17 2.79 2.63,0 0.0211 0,0 0 0
CGGGGC,0.0131,0.0185 0 0,0 0 0,0.0203 0.0180 0
AUAAAG,0.0131,0 0 0,0 0 0,0 0 0
CGCGUG,4.41,3.01 3.30 2.32,0 0 0.0610,0 0 0.0329
UCUCGG,0.0920,0.0554 0.0750 0.0715,0.0995 0.0423 0.0915,0.102 0.0898 0.0329
ACUCGG,0.197,0.424 0.319 0.625,0.498 0.676 13.8,4.73 4.87 4.60
CCCUGG,3.17,2.88 3.13 2.82,0 0 0,0 0 0
CAUACA,0.0131,0 0 0,0 0 0,0 0 0
CAUGAG,3.55,3.01 2.87 2.39,0 0 0,0 0 0
CCAACG,3.17,2.84 3.41 2.72,0 0.0211 0,0 0 0
CUCUUG,4.02,2.82 2.83 2.93,0.0199 0 0.0305,0 0 0.0329
CCCAUG,3.56,2.97 3.06 2.82,0 0 0,0 0 0
CAUAAG,3.60,3.32 2.83 2.48,0 0.0211 0.0305,0 0 0
GCUGGG,0.0263,0 0 0.0715,0 0.0211 0,0.0203 0.0719 0.0493
CAUCAG,4.24,2.97 3.17 2.70,0 0.0211 0,0 0 0.0493
CAUGUG,3.59,3.14 2.81 2.47,0.0199 0 0,0 0 0
CAUUCG,4.19,3.34 2.92 2.64,0.0199 0.0211 0.0305,0 0 0.0164
CCAUGG,3.43,2.88 2.72 2.73,0.0199 0.0211 0,0 0 0
CCACGG,3.10,2.58 2.72 2.70,7.96 7.54 4.76,0.162 0.0539 7.20
CUGCUG,4.07,2.69 2.66 2.55,0 0.0211 0.0305,0.0203 0 0.0164
CCUCAG,3.28,3.10 2.94 2.80,8.20 0.232 0.366,0.142 0.126 0.164
CCACAG,3.23,2.88 3.11 2.95,0 0 0,0 0 0
CAUCGG,4.30,32.0 23.8 43.6,24.8 35.9 23.0,4.73 4.38 3.78
CUAAGG,3.06,3.17 3.02 2.73,0 0 0.0305,0 0 0
CUAAAG,4.18,2.82 2.74 2.91,0 0.0211 0.0305,0 0 0.0493
CUAAUG,3.88,2.97 3.06 2.63,0 0 0.0305,0 0 0
CAGGCG,3.76,2.97 2.68 2.59,0.0199 0 0,0 0 0.0493
CCUCGU,0.355,0.886 0.525 0.929,0.776 1.06 0.305,12.3 4.53 0.641
CUCUAG,4.57,3.10 2.85 2.97,0.0199 0 0,0.0203 0 0.0493
CCUCAA,0.0131,0 0 0,0 0.0423 0,0 0 0
CGAUUG,3.92,2.90 3.28 2.68,0 0 0,0 0 0.0329
CUGUUG,3.78,2.86 2.85 2.79,0 0 0,0 0 0
CCAAUG,3.51,2.42 2.70 3.16,0 0.0211 0,0 0 0
CGGCAG,3.84,2.77 2.87 2.70,0 0 0.0610,0 0 0
CAGAGG,3.07,2.84 2.77 2.73,0 0 0,0.0203 0 0
CACGUG,4.01,2.99 2.66 2.34,0.0398 0 0,0 0 0
CCACCG,4.13,2.71 2.51 2.63,0.0199 0 3.35,0 0 1.33
CCGAAG,4.10,2.88 3.07 2.88,0 0.0211 0.0305,0 0 0.0658
CCCGAG,3.56,2.51 2.44 2.82,0 0 0.0305,0 0 0
CGUCGG,4.43,24.2 20.7 11.3,16.9 14.3 8.54,8.45 7.80 32.6
CCUUCG,3.57,2.82 2.61 2.84,0 0 0,0 0.0180 0
CAGGAG,3.57,3.06 2.34 2.84,0 0 3.78,0 0 1.40
CAAGUU,0.0263,0 0 0,0 0 0,0 0 0
CCUAAG,3.43,2.80 3.04 2.43,0 0 0,0 0 0
CCCAGG,3.36,2.73 2.91 2.43,0 0 0,0 0 0
CUUAUG,3.74,3.47 3.15 2.75,0.0199 0 0,0 0 0.0329
CCGUUG,4.22,3.01 3.09 2.68,0 0 0,0 0 0.0164
CCAUAG,3.51,2.75 2.85 2.57,0 0 4.03,0 0 1.66
CCCGCG,3.73,2.71 3.36 2.84,0 0.0423 0,0 0 0.0164